The target in this test is HLA-A*6802 (Human). Briefly: competition with 125I-labeled probe peptide for purified HLA, gel filtration. The following applies: remark: other sources report otherwise.

As for VLLDYQGMLPV (modifications not checked) [HBV ENV 259 peptide 1147.14 (…)], the IC50 was determined as 2350 nM.

For the origin of these results see patent US20070059799A1.
